For ten molecules, SI results are on record in patent publication US20200339511A1, “Substituted indoline derivatives as dengue viral replication inhibitors” (priority 2016, published 2020).

Format in all cases: cell-based, Dengue virus
Data set [1] deals with DENV-2 strain 16681. Put plainly: Tetravalent RT-qPCR assay, serotype 2. The following applies: RT-qPCR serotype 2 16681, Protocol A. As for the experimental part:
(§1) Tetravalent reverse transcriptase quantitative-PCR (RT-qPCR) assay The antiviral activity of the compounds of the invention was tested against DENV-1 strain TC974#666 (NCPV), DENV-2 strain 16681, DENV-3 strain H87 (NCPV) and DENV-4 strain H241 (NCPV) in a RT-qPCR assay. Therefore, Vero cells were infected with either DENV-1, or -2, or -3, or -4 in the presence or absence of test compounds. At day 3 post-infection, the cells were lysed and cell lysates were used to prepare cDNA of both a viral target (the 3′UTR of DENV; Table 2) and a cellular reference gene (β-actin, Table 2). Subsequently, a duplex real time PCR was performed on a Lightcycler480 instrument. The generated Cp value is inversely proportional to the amount of RNA expression of these targets. Inhibition of DENV replication by a test compound results in a shift of Cp's for the 3′UTR gene. On the other hand, if a test compound is toxic to the cells, a similar effect on β-actin expression will be observed. The comparative ΔΔCp method is used to calculate EC50, which is based on the relative gene expression of the target gene (3′UTR) normalized with the cellular housekeeping gene (β-actin). In addition, CC50 values are determined based on the Cp values acquired for the housekeeping gene β-actin.
(§2) The culture medium consisted of minimal essential medium supplemented with 2% of heat-inactivated fetal calf serum, 0.04% gentamycin (50mg/mL) and 2 mM of L-glutamine. Vero cells, obtained from ECACC, were suspended in culture medium and 75 μL/well was added in 96-well plates (10000 cells/well), which already contain the antiviral compounds. […] In addition, each plate contains wells which are assigned as virus controls (containing cells and virus in the absence of compound) and cell controls (containing cells in the absence of virus and compound). Once the cells were added in the plates, the plates were incubated in a fully humidified incubator (37° C., 5% CO2) until the next day. Dengue viruses serotype-1, 2, 3 and 4 were diluted in order to obtain a Cp of ˜22-24 in the assay. Therefore, 25 μL of virus suspension was added to all the wells containing test compound and to the wells assigned as virus control. In parallel, 25 μL of culture medium was added to the cell controls. Next, the plates were incubated for 3 days in a fully humidified incubator (37° C., 5% CO2). After 3 days, the supernatant was removed from the wells and the cells were washed twice with ice-cold PBS (˜100 μL). The cell pellets within the 96-well plates were stored at −80° C. for at least 1 day. Next, RNA was extracted using the Cells-to-CT™ lysis kit, according to the manufacturer's guideline (Life Technologies). The cell lysates can be stored at −80° C. or immediately used in the reverse transcription step.
(§3) In preparation of the reverse transcription step, mix A (table 3A) was prepared and 7.57 μL/well was dispensed in a 96-well plate. After addition of 5 μL of the cell lysates, a five minute denaturation step at 75° C. was performed (table 3B). Afterwards, 7.43 μL of mix B was added (table 3C) and the reverse transcription step was initiated (table 3D) to generate cDNA.
(§4) Finally, a RT-qPCR mix was prepared, mix C (table 4A), and 22.02 μL/well was dispensed in 96-well LightCycler qPCR plates to which 3μL of cDNA was added and the qPCR was performed according to the conditions in table 4B on a LightCycler 480.
(§5) Using the LightCycler software and an in-house LIMS system, dose response curves for each compound were calculated and the half maximal effective concentration (EC50) and the half maximal cytotoxic concentration (CC50) were determined (Tables 5-8).
(In qPCR the cycle at which signal appears reflects the starting amount.)

For data set [2], the system named is DENV-4 strain H241. Briefly: Tetravalent RT-qPCR assay, serotype 4. The following applies: RT-qPCR serotype 4 H241, Protocol A. As for the experimental part: as §1, §2, §3, §4, §5
The subject of data set [3] is DENV-2 16681 strain. Briefly: DENV-2 antiviral assay (eGFP-labeled virus in Vero cells). The note with it: SI=CC50/EC50, DENV-2 antiviral assay. The method, then: The antiviral activity of all the compounds of the invention was tested the against DENV-2 16681 strain which was labeled with enhanced green fluorescent protein (eGPF). The culture medium consists of minimal essential medium supplemented with 2% of heat-inactivated fetal calf serum, 0.04% gentamycin (50 mg/mL) and 2 mM of L-glutamine. Vero cells, obtained from ECACC, were suspended in culture medium and 25 μL was added to 384-well plates (2500 cells/well), which already contain the antiviral compounds. Typically, these plates contain a 5-fold serial dilution of 9 dilution steps of the test compound at 200 times the final concentration in 100% DMSO (200 nL). […] Finally, each plate contains wells which are assigned as virus controls (containing cells and virus in the absence of compound), cell controls (containing cells in the absence of virus and compound) and medium controls (containing medium in the absence of cells, virus and compounds). To the wells assigned as medium control, 25 μL of culture medium was added instead of Vero cells. Once the cells were added to the plates, the plates were incubated for 30 minutes at room temperature to allow the cells to distribute evenly within the wells. Next, the plates were incubated in a fully humidified incubator (37° C., 5% CO2) until the next day. Then, DENV-2 strain 16681, labeled with eGFP, was added at a multiplicity of infection (MOI) of 0.5. Therefore, 15 μL of virus suspension was added to all the wells containing test compound and to the wells assigned as virus control. In parallel, 15 μL of culture medium was added to the medium and cell controls. Next, the plates were incubated for 3 days in a fully humidified incubator (37° C., 5% CO2). At the day of the read out, the eGFP fluorescence was measured using an automated fluorescence microscope at 488 nm (blue laser). Using an in-house LIMS system, inhibition dose response curves for each compound were calculated and the half maximal effective concentration (EC50) was determined. Therefore, the percent inhibition (I) for every test concentration is calculated using the following formula: I=100*(ST-SCC)/(SVC-SCC), ST, SCC and SVC are the amount of eGFP signal in the test compound, cell control and virus control wells, respectively. The EC50 represents the concentration of a compound at which the virus replication is inhibited with 50%, as measured by a 50% reduction of the eGFP fluorescent intensity compared to the virus control. The EC50 is calculated using linear interpolation (Table 1).

In data set [4] the test system is DENV-3 strain H87. Put plainly: Tetravalent RT-qPCR assay, serotype 3. The note with it: RT-qPCR serotype 3 H87, Protocol A. The method, then: as §1, §2, §3, §4, §5
Data set [5] concerns DENV-1 strain TC974#666. Briefly: Tetravalent RT-qPCR assay, serotype 1. The note with it: RT-qPCR serotype 1 TC974#666, Protocol A. As for the experimental part:
as §1, §2, §3, §4, §5

For the molecule `COc1cc(NC(C(=O)N2CCc3cc(OC)c(C(F)(F)F)cc32)c2ccc(Cl)cc2OC)cc(OCCO)c1` (single isomer, unassigned) [Compound 11B, 2-(4-chloro-2-methoxyphenyl)-2-((3-(2-hydroxyethoxy)-5-methoxyphenyl)amino)-1-(5-methoxy-6-(trifluoromethyl)indolin-1-yl)ethanone], the SI in data set [1] was 4840; in data set [2] it was 20; in data set [3] it was >33700; in data set [4], >139; in data set [5], >352.

Consider `COc1cc(NC(C(=O)N2CCc3cc(OC)c(C(F)(F)F)cc32)c2ccc(Cl)cc2)cc(OCCO)c1` (single isomer, unassigned) [Compound 7B, 2-(4-chlorophenyl)-2-((3-(2-hydroxyethoxy)-5-methoxyphenyl)amino)-1-(5-methoxy-6-(trifluoromethyl)indolin-1-yl)ethanone], for which the SI in data set [1] came to 5780; in data set [2], 25; in data set [3], 10000; in data set [4] it was 155; in data set [5] it was 802.

Consider `COc1cc(NC(C(=O)N2CCc3ccc(OC(F)(F)F)cc32)c2ccc(Cl)cc2F)cc(OCCO)c1` (single isomer, unassigned) [Compound 6B, 2-(4-chloro-2-fluorophenyl)-2-((3-(2-hydroxyethoxy)-5-methoxyphenyl)amino)-1-(6-(trifluoromethoxy)indolin-1-yl)ethanone], for which the SI in data set [1] was 4400; in data set [2], 27; in data set [3], 4900; in data set [4], 253; in data set [5], 1590.

Regarding `COc1cc(NC(C(=O)N2CCc3ccc(OC(F)(F)F)cc32)c2ccc(Cl)cc2OC)cc(OCCO)c1` (single isomer, unassigned) [Compound 5A, 2-(4-chloro-2-methoxyphenyl)-2-((3-(2-hydroxyethoxy)-5-methoxyphenyl)amino)-1-(6-(trifluoromethoxy)indolin-1-yl)ethanone], the SI in data set [1] is recorded as 2680; in data set [2], 16; in data set [3], 7000; in data set [4] it was 214; in data set [5], 1650.

On to `COc1cc(NC(C(=O)N2CCc3c(C)cc(C(F)(F)F)cc32)c2ccc(Cl)cc2)cc(OCCO)c1` (single isomer, unassigned) [Compound 10B, 2-(4-chlorophenyl)-2-((3-(2-hydroxyethoxy)-5-methoxy-phenyl)amino)-1-(4-methyl-6-(trifluoromethyl)indolin-1-yl)ethanone], for which the SI in data set [1] is 2670; in data set [2] it was >13; in data set [3] it was 5470; in data set [4] it was >199; in data set [5] it was >1810.

Turning to `COc1cc(NC(C(=O)N2CCc3cc(OC)c(C(F)(F)F)cc32)c2ccc(Cl)cc2F)cc(OCCO)c1` (single isomer, unassigned) [Compound 8B, 2-(4-chloro-2-fluorophenyl)-2-((3-(2-hydroxyethoxy)-5-methoxyphenyl)amino)-1-(5-methoxy-6-(trifluoromethyl)indolin-1-yl)ethanone], the SI in data set [1] is listed as 5510; in data set [2], 98; in data set [3], >49900; in data set [4], >83; in data set [5], >454.

Regarding `COc1cc(NC(C(=O)N2CCc3ccc(C(F)(F)F)cc32)c2ccc(Cl)cc2OC)cc(OCCO)c1` (single isomer, unassigned) [Compound 1B, 2-(4-chloro-2-methoxyphenyl)-2-((3-(2-hydroxyethoxy)-5-methoxyphenyl)amino)-1-(6-(trifluoromethyl)indolin-1-yl)ethanone], the SI was determined as 1100 in data set [1]; 12 in data set [2]; 3578 in data set [3]; 46 in data set [4]; 1110 in data set [5].

Take `COc1cc(NC(C(=O)N2CCc3ccc(OC(F)(F)F)cc32)c2ccc(Cl)cc2)cc(OCCO)c1` (single isomer, unassigned) [Compound 3A, 2-(4-chlorophenyl)-2-((3-(2-hydroxyethoxy)-5-methoxyphenyl)amino)-1-(6-(trifluoromethoxy)indolin-1-yl)ethanone]: the SI stood at 4860 in data set [1]; 32 in data set [2]; 4530 in data set [3]; 169 in data set [4]; 1210 in data set [5].

`COc1cc(NC(C(=O)N2CCc3c(C)cc(OC(F)(F)F)cc32)c2ccc(Cl)cc2)cc(OCCO)c1` (single isomer, unassigned) [Compound 9B, 2-(4-chlorophenyl)-2-((3-(2-hydroxyethoxy)-5-methoxy-phenyl)amino)-1-(4-methyl-6-(trifluoromethoxy)indolin-1-yl)ethanone]: the SI in data set [1] is reported as 11900; in data set [2], 23; in data set [3], 8440; in data set [4], >191; in data set [5], >1800.

On to `COc1cc(NC(C(=O)N2CCc3ccc(C(F)(F)F)cc32)c2ccc(Cl)cc2)cc(OCCO)c1` (single isomer, unassigned) [Compound 4B, 2-(4-chlorophenyl)-2-((3-(2-hydroxyethoxy)-5-methoxyphenyl)amino)-1-(6-(trifluoromethyl)indolin-1-yl)ethanone], for which the SI in data set [1] is recorded as 17; in data set [3], 11; in data set [4] it was 7.6; in data set [5], >4.6.
